Results as given in article PMC3376133, “Glutamine versus Ammonia Utilization in the NAD Synthetase Family” (PLoS ONE, 2012).

Tests used:
[1] = tested on: Nc1ncnc2c1ncn2[C@@H]1O[C@H](COP(=O)(O)OP(=O)([O-])OC[C@H]2O[C@@H]([n+]3cccc(C(=O)O)c3)[C@H](O)[C@@H]2O)[C@@H](O)[C@H]1O; experiment: purified protein; conditions: fixed 2 mM ATP and 40 mM NH3, 10 mM MgCl2, pH 7.5, 37°C
[2] = tested on: Nc1ncnc2c1ncn2[C@@H]1O[C@H](COP(=O)(O)OP(=O)(O)OP(=O)(O)O)[C@@H](O)[C@H]1O; experiment: purified protein; conditions: fixed 2 mM NaAD and 40 mM NH3, 10 mM MgCl2, pH 7.5, 37°C

## st_NADS (Salmonella enterica subsp. enterica serovar Typhimurium str. LT2; S48N)
[1]
  Km: 118 ± 23 µM
  kcat: 0.65 ± 0.02 s⁻¹
[2]
  Km: 492 ± 80 µM
  kcat: 0.65 ± 0.03 s⁻¹
